Assay results: PMC11363325, “A Novel Prodrug Strategy Based on Reversibly Degradable Guanidine Imides for High Oral Bioavailability and Prolonged Pharmacokinetics of Broad-Spectrum Anti-influenza Agents” (ACS Central Science, 2024)

Assays:
[1] = tested on: A/Hong Kong/8/1968 (HK; H3N2)
[2] = tested on: A/Puerto Rico/8/1934 (PR8; H1N1)

Structure (SMILES)	S.I. (ratio of CC50 to EC50) ([1]; HK)	S.I. (ratio of CC50 to EC50) ([2]; PR8)	S.I. (ratio of CC50 to EC50) (B/Lee/1940 (Lee); Lee)	S.I. (ratio of CC50 to EC50) [1]	S.I. (ratio of CC50 to EC50) [2]	S.I. (ratio of CC50 to EC50) (B/Lee/1940 (Lee))
CCC(CC)O[C@@H]1C=C(C(=O)O)C[C@H](N=C(N2C(=O)CC(C)(C)C2=O)N2C(=O)CC(C)(C)C2=O)[C@H]1NC(C)=O [OSC-GCDI(D)]	(>3333)	(>1429)	(>7.3)			
CCC(CC)O[C@@H]1C=C(C(=O)O)C[C@H](N)[C@H]1NC(C)=O [OSC, oseltamivir carboxylate, reference compound]	(>20,000)	(>1000)	(>77.5)			
NC(=O)c1ncn([C@@H]2O[C@H](CO)[C@@H](O)[C@H]2O)n1 [RBV, Ribavirin, reference compound]				(>4.6)	(>9.0)	(>7.5)
CCC(CC)O[C@@H]1C=C(C(=O)O)C[C@H](N=C(N2C(=O)CCC2=O)N2C(=O)CCC2=O)[C@H]1NC(C)=O [OSC-GCDI(S)]	(>3333)	(>1667)	(>9.01)			
CCC(CC)O[C@@H]1C=C(C(=O)O)C[C@H](N=C(N2C(=O)C3CCC(C)CC3C2=O)N2C(=O)C3CCC(C)CC3C2=O)[C@H]1NC(C)=O (stereo partly shown) [OSC-GCDI(CM)]	(>10,000)	(>3333)	(>12.0)			
CCC(CC)O[C@@H]1C=C(C(=O)O)C[C@H](N=C(N2C(=O)CC(C)C2=O)N2C(=O)CC(C)C2=O)[C@H]1NC(C)=O (stereo partly shown) [OSC-GCDI(M)]	(>5000)	(>2500)	(>18.0)			
CCC(CC)O[C@@H]1C=C(C(=O)O)C[C@H](NC(=N)N)[C@H]1NC(C)=O [GOC, guanidino oseltamivir carboxylate, reference compound]	(>20,000)	(>20,000)	(>142.9)			
CCC(CC)O[C@@H]1C=C(C(=O)O)C[C@H](N=C(N2C(=O)[C@H]3CC=CC[C@H]3C2=O)N2C(=O)[C@H]3CC=CC[C@H]3C2=O)[C@H]1NC(C)=O [OSC-GCDI(Ce)]	(>5000)	(>3333)	(>8.4)			
CCC(CC)O[C@@H]1C=C(C(=O)O)C[C@H](N=C(N2C(=O)c3ccccc3C2=O)N2C(=O)c3ccccc3C2=O)[C@H]1NC(C)=O [OSC-GCDI(P)]	(>10,000)	(>3333)	(>44.2)			
CCC(CC)O[C@@H]1C=C(C(=O)O)C[C@H](N=C(N2C(=O)[C@H]3CCCC[C@H]3C2=O)N2C(=O)[C@H]3CCCC[C@H]3C2=O)[C@H]1NC(C)=O [OSC-GCDI(C)]	(>20,000)	(>10,000)	(>45.2)			
CCCCC1CC(=O)N(C(=N[C@H]2CC(C(=O)O)=C[C@@H](OC(CC)CC)[C@@H]2NC(C)=O)N2C(=O)CC(CCCC)C2=O)C1=O (stereo partly shown) [OSC-GCDI(B)]	(>2500)	(>1111)	(>1.4)			
NC12CC3CC(CC(C3)C1)C2 [AMT, Amantadine, reference compound]	(>64.1)					

Read-outs that look alike come from different tables or passages of the source.
